Data from the supplement of paper PMC9931576.
Human monoclonal antibodies against the spike receptor-binding domain (heavy:light variable regions). IC50 against pseudoviruses bearing the spike of naturally observed variants; lower = stronger; >10 µg/ml means not reached at the top dose. No active / inactive call. The stated detection limit is 0.0005 µg/ml; values near or below 0.001 µg/ml lie at the floor of the assay.

Experiments:
Assay in all cases: pseudovirus neutralization IC50; higher = weaker neutralization
[1] = biological target: SARS-CoV-2 Omicron BA.1 spike pseudovirus
Protocol: (§1)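 Single-round VSV luciferase pseudovirus mixed with antibody dilutions for 1 h and put on Huh-7 cells for about a day; IC50 from the dose curve.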

[2] = biological target: SARS-CoV-2 Omicron BA.2 spike pseudovirus
Protocol: as §1

[3] = biological target: SARS-CoV-2 Omicron BA.2.75 spike pseudovirus
Protocol: as §1

[4] = biological target: SARS-CoV-2 Omicron BA.5 spike pseudovirus
Protocol: as §1

[5] = biological target: SARS-CoV-2 Omicron BQ.1.1 spike pseudovirus
Protocol: as §1

[6] = biological target: SARS-CoV-2 Omicron XBB spike pseudovirus
Protocol: as §1

[7] = biological target: SARS-CoV-2 early D614G spike pseudovirus
Protocol: as §1

Binder	pseudovirus neutralization IC50 [1]	pseudovirus neutralization IC50 [2]	pseudovirus neutralization IC50 [3]	pseudovirus neutralization IC50 [4]	pseudovirus neutralization IC50 [5]	pseudovirus neutralization IC50 [6]	pseudovirus neutralization IC50 [7]
BD57-0175 (protein) chain 1: EVRLVQSGAEVKKPGDSLKISCQGLGYTFSNYWIGWVRQMSGKGLEWMGIIYNTDSDVRYNPSFQGQVTISADNSISTAYLQWTSLKASDSAMYYCARQHTNGWWVGDYWGQGTLVTVSS chain 2: EIVMTQSPTALSVSPGERATLSCRASQSVISNLAWFQQKPGQAPRLLIYGASTRATGIPARFSGSGSGTEFTLTISSLQSEDFAVYYCHQYNNWPPWTFGQGTQVEMK	> 10 µg/mL	2.08 µg/mL	> 10 µg/mL	7.31 µg/mL	> 10 µg/mL	> 10 µg/mL	0.00105 µg/mL
BD57-0188 (protein) chain 1: EVLLVESGGGLVQPGRSLRLSCVASGFIFDDYGMHWVRQAPGKGLEWVSGISWNGDSKAYADSVKGRFTVSRDDAKNSLYLQMNSLRPEDTAVYYCAKVASTTWFYRGWFDYWGQGTLVTVAP chain 2: EIVLTQSPGTLSLSPGERATLSCRASQSVSGSYLAWYQRKPGQAPRLLIYGASSRATDIPDRFSGSGSGADFTLIISRLEPEDFAVYYCQQYGNSPLTFGGGTKVEIK	> 10 µg/mL	> 10 µg/mL	> 10 µg/mL	> 10 µg/mL	> 10 µg/mL	> 10 µg/mL	> 10 µg/mL
BD57-0170 (protein) chain 1: QVQLVQSGAEVKKPGSSVKVSCKASGGTFITYAINWVRQAPGQGLEWMGGITPIVNIGNYAQKFQGRVTITADKSTTTVYLELSRLRSEDTAVYYCARLREDITVVPADEPNVFNVWGQGTMITVSS chain 2: DIVMTQSPDSLAVSLGERATINCKSSQSLLHSFNNKNYLAWYQQKPGQPPKLLIYWASTRESGVPDRFSGSGSGTDFTLTISSLQAEDVALYYCQQYYTSPMYTFGQGTKLEIK	0.000736 µg/mL	0.000746 µg/mL	0.000989 µg/mL	0.000526 µg/mL	3.9 µg/mL	0.107 µg/mL	0.000663 µg/mL
BD57-0173 (protein) chain 1: QVQLVQSGAEVKKPGASVKVSCRASHYTFSTYTITWVRQAPGRGLEWLGWISAYNGDTKYSQKLQGRVSMTTDTSTNTAYMELRSLRSDDTAVYYCASDFGDAGLISGLDVWGQGTTVTVSS chain 2: DIQMTQSPSSLSASVGDRVTVTCRASQSIRTYLHWYQQKPGKAPKLLIFAASSLQSGVPSRFSGSGSGTDFTLTISSLQPEDFATYYCQQSYSSPHTFGPGTKVDIK	2.22 µg/mL	2.62 µg/mL	0.743 µg/mL	4.24 µg/mL	> 10 µg/mL	6.18 µg/mL	0.487 µg/mL
BD57-0178 (protein) chain 1: QVQLVQSGAEMKKPGSSVKVSCKASGGPFSSYSISWVRQAPGQGLEWMGGIIPILGTTNYAQKFQGRVRITADDSTSTAYMELSSLRSNDTAVYYCATPFRGAAGAYYYYYMDVWGKGTTVIVSS chain 2: DIQMTQSPSSLSASVGDRVTITCQASQGISNFLNWYQQRPGKAPKLLIYDASNLETGVPSRFSGSGSGTYFTLTISSLQPEDFATYYCQQYDNVRLNFGGGTKVDIK	2.08 µg/mL	3.87 µg/mL	2.98 µg/mL	4.63 µg/mL	7.71 µg/mL	2.55 µg/mL	4.99 µg/mL
BD57-0187 (protein) chain 1: QVQLVESGGGVVQPGRSLRLSCAASGFTFSSYAMHWVRQAPGKGLEWVAVLSYAGSHIYYADSVKGRFTISRDNSKNTLYLQMKSLRAEDTAVYYCARDSGDGIIGTTGWFGPWGQGTLVTVSA chain 2: SYVLTQPPSVSVAPGQTARIPCEENNIGSKSVHWYQQKPGQAPVLVVYDDSDRPSGIPERFSGSNSGNTATLTINRVEAGDEADYYCQVWDGSSDPFVFGSGTKVTVL	2.65 µg/mL	2.76 µg/mL	3.33 µg/mL	2.76 µg/mL	> 10 µg/mL	2.13 µg/mL	> 10 µg/mL
